The exact form of at least one protein or probe is not confirmed. At least one verdict was read from the data and is not stated in words by the source.
Columns and labels:
Egr-1 (recombinant) = assay: EMSA; details: commercial probe, HSV-1 30mer competed; not stated; EMSA according to the manufacturers' protocols (Signosis, Sigma Aldrich), 40x cold competitor; commercial protein; label: 32P end label
Sp1 (recombinant) = assay: EMSA; details: labeled commercial probe; not stated; EMSA according to the manufacturers' protocols (Signosis, Sigma Aldrich), 40x cold competitor; commercial protein; label: 32P end label (unlabeled as competitor)

Row | Sequence | binding result (Egr-1 (recombinant)) | binding result (Sp1 (recombinant))
1 | ATCCAGCGGGGGCAGCGGGGGCGA (double strand) [commercial Egr-1 oligonucleotide] | binds | 
2 | ATTCGATCGGGGCGGGGCGACTGAT (double strand) [commercial Sp1 oligonucleotide] |  | binds
